Pooled drug test results. Numbers come from NIAID ChemDB, via PubChem.

Common to all: tests on isolated targets; organism: Pneumocystis carinii

ICn is the concentration giving n% inhibition. Inhibition is in % at the dose shown (toxicity tests: loss of growth or viability). Two numbers with a dash give a range or band. Neighbouring rows are from separate reports. An empty or dashed field is not shown.

compound | dose | endpoint | target | value
O=c1ccc2ccc(OCCCCCCCCN3CCOCC3)cc2o1 | - | IC50 | Oxidosqualene cyclase | 5.35 µM
COc1c(C)c2c(c(O)c1C/C=C(\C)CCC(=O)O)C(=O)OC2 | - | IC50 | Inosine monophosphate dehydrogenase | 0.62 µM
Nc1nc(N)c2ccc(Br)cc2n1 | - | IC50 | DHFR | 12 µM
COc1cc(N(OC)S(=O)(=O)c2ccc(N)cc2)ncn1 | - | IC50 | DHPS | 34 µM
Nc1nc(N)c2nc(CCCc3ccccc3)c(CCCc3ccccc3)nc2n1 | - | IC50 | DHFR | 1.1 µM
C=CCN(C)CCCCCCOc1ccc2ccc(=O)oc2c1 | - | IC50 | Oxidosqualene cyclase | 0.15 µM
CC(=O)NS(=O)(=O)c1ccc(NC(=O)c2ccco2)cc1 | - | IC50 | DHPS | 1309 µM
CN(C)C(=O)/C=C/c1ccc(OCCCCCCCCCC[N+](C)(C)[O-])cc1O | - | IC50 | Oxidosqualene cyclase | 0.15 µM
Nc1nc2occ(-c3ccc([N+](=O)[O-])cc3)c2c(=O)[nH]1 | - | IC50 | DHFR | 75 µM
O=c1ccc2ccc(OCCCCCCN3CCCCC3)cc2o1 | - | IC50 | Oxidosqualene cyclase | 2.48 µM
NC(=NC1CC1)c1ccc(-c2ccc(-c3ccc(C(N)=NC4CC4)cc3)o2)cc1 | - | IC50 | Ergosterol | 36 µM
Nc1nc2occ(-c3ccc(Cl)cc3)c2c(=O)[nH]1 | - | IC50 | DHFR | 14 µM
CC(=O)Nc1ccc(C(=O)O)cc1 | - | IC50 | DHPS | 120 µM
CCOC(=O)CC[C@H](NC(=O)c1ccc(-c2coc3nc(N)[nH]c(=O)c23)cc1)C(=O)OCC | - | IC50 | DHFR | >300 µM
CC(Nc1ccc2nc(N)[nH]c(=O)c2c1)c1ccc([N+](=O)[O-])cc1 | - | IC50 | Thymidylate synthetase | 46 µM
CN(C)c1ccc(C(=O)O)cc1 | - | IC50 | DHPS | >1000 µM
c1cc2c(cc1C1=NCCN1)c1cc(C3=NCCN3)ccc1n2CC1CCCCC1 | - | IC50 | Topoisomerase II | 5–10 µM
c1cc2[nH]c3ccc(C4=NCCN4)cc3c2cc1C1=NCCN1 | - | IC50 | Ergosterol | 107 µM
COc1ccc(C2c3c(nc(N)[nH]c3=O)OC2[N+](=O)[O-])cc1 | - | IC50 | DHFR | 100 µM
OCCn1ccnc1-c1ccc(-c2ccc(-c3ccc(-c4nccn4CCO)cc3)o2)cc1 | - | IC50 | Ergosterol | 363 µM
c1cc2[nH]c(-c3ccc4[nH]c5ccc(-c6nc7cc(C8=NCCN8)ccc7[nH]6)cc5c4c3)nc2cc1C1=NCCN1 | - | IC50 | Topoisomerase II | 50 µM
Nc1ccc(S(=O)(=O)N[n+]2ccccc2)cc1 | - | IC50 | DHPS | 498.5 µM
COc1cc(OC)cc(N2C(N)=NC(N)=NC2(C)C)c1 | - | IC50 | DHFR | 12.9 µM
CN(C)CCCCCCCCCCOc1ccc(/C=C/C(=O)N(C)C)c(O)c1 | - | IC50 | Oxidosqualene cyclase | 0.03 µM
Nc1nc(N)c2c(OCC(F)(F)C(F)(F)C(F)(F)F)cccc2n1 | - | IC50 | DHFR | 71 µM
Cn1c2ccc(C3=NCCN3)cc2c2cc(C3=NCCN3)ccc21 | - | IC50 | Topoisomerase II | 5–10 µM
COc1cc(CNc2ccc3nc(N)[nH]c(=O)c3c2)cc(OC)c1OC | - | IC50 | Thymidylate synthetase | >210 µM
Cc1ccc2c(N)nc(N)nc2c1 | - | IC50 | DHFR | 65 µM
c1cc(-c2ccc(C3=NCCCN3)cc2)nc(-c2ccc(C3=NCCCN3)cc2)n1 | - | IC50 | Topoisomerase II | 3000–12000 µM
CN(C)CCCCCCCCOc1ccc2ccc(=O)oc2c1 | - | IC50 | Oxidosqualene cyclase | 1.04 µM
CCOC(=O)c1ccc(NS(=O)(=O)c2ccc(NC(C)=O)cc2)cc1 | - | IC50 | DHPS | 238 µM
O=C(O)c1ccccc1 | - | IC50 | DHPS | 170 µM
Nc1nc2occ(-c3cccc(Cl)c3)c2c(=O)[nH]1 | - | IC50 | DHFR | 24 µM
N=C(N)c1ccc2c(c1)[nH]c1cc(C(=N)N)ccc12 | - | IC50 | Topoisomerase II | 10 µM
COc1ccc2nc(N)nc(N)c2c1 | - | IC50 | DHFR | 58 µM
CN(C)CCCOc1ccc(C(=O)c2ccc(Cl)cc2)cc1 | 2 µM | inhibition | Oxidosqualene cyclase | 70%
Nc1nc(N)c2ccc(F)cc2n1 | - | IC50 | DHFR | 41 µM
COc1ccccc1-c1coc2nc(N)[nH]c(=O)c12 | - | IC50 | DHFR | >300 µM
c1cc2c(cc1C1=NCCN1)[nH]c1cc(C3=NCCN3)ccc12 | - | IC50 | Ergosterol | 51 µM
c1cc2[nH]c3ccc(C4=NCCN4)cc3c2cc1C1=NCCN1 | - | IC50 | Topoisomerase II | 100 µM
COc1ccc(OC)c(NCc2csc3nc(N)nc(N)c23)c1 | 10 µM | inhibition | DHFR | <30%
CC(=O)Nc1ccc(C(=O)O)cc1 | 10 µM | inhibition | DHPS | 12.5%
CC(C)N=C(N)c1ccc2[nH]c3ccc(C(N)=NC(C)C)cc3c2c1 | - | IC50 | Topoisomerase II | 5–10 µM
Cl.Cl.Cl.O.c1cc(-c2ccc(C3=NCCN3)cc2)nc(-c2ccc(C3=NCCN3)cc2)n1 | - | IC50 | Topoisomerase II | 3000–6000 µM

Repeating the first 3 entries:

compound	dose	endpoint	target	value
O=c1ccc2ccc(OCCCCCCCCN3CCOCC3)cc2o1	-	IC50	Oxidosqualene cyclase	5.35 µM
COc1c(C)c2c(c(O)c1C/C=C(\C)CCC(=O)O)C(=O)OC2	-	IC50	Inosine monophosphate dehydrogenase	0.62 µM
Nc1nc(N)c2ccc(Br)cc2n1	-	IC50	DHFR	12 µM